Data as given in PubChem BioAssay AID1259414 (Drosophila RNAi Screening Center, 2018).
Screen: 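Fly genes that alter Wolbachia amount inside host cells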 (primary screen). System: Drosophila JW18 cells infected with Wolbachia. Reagent: long dsRNA against Drosophila genes, 0.25 µg dsRNA per well of a 384-well plate. Timing: 5 days. Treatment: cells persistently infected with Wolbachia before knock-down; no added drug. Detection: 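Imaged fluorescence in situ signal for Wolbachia 23S rRNA per DAPI-counted host cell, given as a robust z-score within each plate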. Direction: Wolbachia per cell robust z: higher = more Wolbachia per host cell than the plate typical. Hit rule: 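Hit when robust z is 1.5 or more, or -1.5 or less, in at least two of three replicates; excludes dsRNAs with several or no targets, genes not expressed in JW18 and well A1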.
The deposit covers about 24,000 reagents; shown is a random part of those that have a named target and a result. In the full data, about 1,210 (5%) were called active. 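Inactive calls also include excluded dsRNAs with several or no targets, genes unexpressed in JW18, and well A1, regardless of score.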 Reagents against one gene are numbered here.

The opening 2 records as a preview:
| Wolbachia per cell robust z, rep 1 | Wolbachia per cell robust z, rep 2 | Wolbachia per cell robust z, rep 3 | Call | Target gene | dsRNA no. |
| --- | --- | --- | --- | --- | --- |
| 0.118 | 0.0668 | -0.694 | inactive | Bx (GeneID 32846) | 1 |
| 1.54 | 0.822 | 1.06 | inactive | Bx (GeneID 32846) | 2 |

Main list, repeating the preview:
| Wolbachia per cell robust z, rep 1 | Wolbachia per cell robust z, rep 2 | Wolbachia per cell robust z, rep 3 | Call | Target gene | dsRNA no. |
| --- | --- | --- | --- | --- | --- |
| 0.118 | 0.0668 | -0.694 | inactive | Bx (GeneID 32846) | 1 |
| 1.54 | 0.822 | 1.06 | inactive | Bx (GeneID 32846) | 2 |
| -3.32 | -0.452 | -0.0368 | inactive | Bx (GeneID 32846) | 3 |
| -0.414 | 0.623 | -2.5 | inactive | Dhod (GeneID 41022) | 1 |
| -1.32 | 0.624 | 0.881 | inactive | CG8563 (GeneID 38826) | 1 |
| -0.165 | 0.402 | 0.158 | inactive | CG15115 (GeneID 37192) | 1 |
| 0.59 | 0.734 | 0.0462 | inactive | CG17712 (GeneID 33356) | 1 |
| -4.19 | -0.0545 | -0.526 | inactive | Cpr67B (GeneID 39081) | 1 |
| -1.69 | -0.0153 | 0.236 | inactive | sand (GeneID 35777) | 1 |
| 0.141 | 0.136 | 0.732 | inactive | Atox1 (GeneID 326216) | 1 |
| -0.847 | -0.51 | -0.37 | inactive | CG12206 (GeneID 31316) | 1 |
| -0.716 | -1.56 | -0.175 | inactive | Exd2 (GeneID 41374) | 1 |
| 0.102 | 0.418 | 0.369 | inactive | Exd2 (GeneID 41374) | 2 |
| 0.482 | 1.39 | -0.101 | inactive | CG5958 (GeneID 34022) | 1 |
| 0.623 | 0.854 | 0.458 | inactive | sens-2 (GeneID 33957) | 1 |
| 0.364 | 0.326 | 0.969 | inactive | sens-2 (GeneID 33957) | 2 |
| 1.46 | -1.58 | 10.9 | inactive | shi (GeneID 45928) | 1 |
| 1.33 | -0.68 | 0.463 | inactive | shi (GeneID 45928) | 2 |
| -0.505 | -1.79 | -0.699 | inactive | PolI (GeneID 40965) | 1 |
| -1.08 | -0.675 | -2.44 | inactive | hydra (GeneID 33058) | 1 |
| -0.149 | -0.449 | 0.208 | inactive | Jhe (GeneID 36780) | 1 |
| -0.703 | -0.348 | -1.64 | inactive | Jhe (GeneID 36780) | 2 |
| 0.694 | 0.191 | -0.506 | inactive | CG15225 (GeneID 37354) | 1 |
| 1.07 | 0.153 | 1.18 | inactive | CG15225 (GeneID 37354) | 2 |
| 1.2 | -0.483 | -0.703 | inactive | Cp190 (GeneID 41848) | 1 |
| 0.548 | 0.0475 | -1.1 | inactive | l(3)73Ah (GeneID 48903) | 1 |
| -1.5 | -0.0656 | 0.104 | inactive | Atg8b (GeneID 42132) | 1 |
| -0.832 | -6.98 | -0.678 | inactive | Atg8b (GeneID 42132) | 2 |
| -3.83 | 0.207 | 0.161 | inactive | CG4553 (GeneID 43078) | 1 |
| -0.494 | 0.161 | 0.112 | inactive | CG4553 (GeneID 43078) | 2 |
| -0.108 | -1.35 | -2.78 | inactive | CG18467 (GeneID 36958) | 1 |
| -0.842 | -1.19 | -0.046 | inactive | CAH3 (GeneID 31804) | 1 |
| -0.0842 | -1.62 | 0.393 | inactive | Kdm4B (GeneID 318918) | 1 |
| -1.11 | -0.04 | 0.349 | inactive | Kdm4B (GeneID 318918) | 2 |
| -4.28 | 0.0814 | 0.966 | inactive | CG8870 (GeneID 41645) | 1 |
| 0.712 | 1.43 | 0.034 | inactive | CG10839 (GeneID 34944) | 1 |
| -0.317 | -0.462 | 0.214 | inactive | PK2-R1 (GeneID 41639) | 1 |
| -1.65 | -0.187 | -0.546 | inactive | PK2-R1 (GeneID 41639) | 2 |
| 0.205 | -0.981 | -3.24 | inactive | ND-ACP (GeneID 38154) | 1 |
| 0.384 | -0.783 | -0.201 | inactive | Mlh1 (GeneID 35796) | 1 |
| 0.197 | -0.293 | -1.95 | inactive | CG8778 (GeneID 36392) | 1 |
| -0.664 | -2.41 | -1.09 | inactive | CG14689 (GeneID 41283) | 1 |
| 0.4 | -2.73 | -1.19 | inactive | CG14689 (GeneID 41283) | 2 |
| 0.341 | -0.253 | -0.76 | inactive | Nup93-1 (GeneID 32350) | 1 |
| 0.288 | 0.339 | 0.957 | inactive | Pdf (GeneID 43193) | 1 |
| -0.0851 | -2.52 | -0.733 | inactive | spo (GeneID 38631) | 1 |
| 0.459 | 0.811 | -0.0469 | inactive | CG6610 (GeneID 38693) | 1 |
| -4.98 | -0.337 | -0.00294 | inactive | Amun (GeneID 32123) | 1 |
| -0.352 | -0.29 | -1.9 | inactive | Amun (GeneID 32123) | 2 |
| 0.447 | -1.17 | -0.901 | inactive | CG2750 (GeneID 32179) | 1 |
| -1.19 | -0.952 | -0.952 | inactive | CG33552 (GeneID 3346220) | 1 |
| 0.754 | 1.4 | 0.589 | inactive | CG11085 (GeneID 32213) | 1 |
| -0.365 | -4.82 | 0.264 | inactive | CG11085 (GeneID 32213) | 2 |
| -0.877 | 1.14 | -0.159 | inactive | CG11085 (GeneID 32213) | 3 |
| -1.29 | -1.03 | -0.868 | inactive | CG32457 (GeneID 318040) | 1 |
| 2.31 | 1.11 | 1.76 | inactive | CG17169 (GeneID 3354995) | 1 |
| 0.387 | -0.551 | -6.48 | inactive | Teh1 (GeneID 41215) | 1 |
| 1.12 | -0.475 | 0.932 | inactive | Cbs (GeneID 33081) | 1 |
| 0.802 | 0.395 | 0.821 | inactive | CG33012 (GeneID 36342) | 1 |
| 1.96 | 0.186 | 0.49 | inactive | CG33012 (GeneID 36342) | 2 |
| -1.54 | -1.02 | 1.62 | inactive | CG31867 (GeneID 261614) | 1 |
| -2.35 | -1.52 | -0.22 | active | CG12985 (GeneID 32774) | 1 |
| 0.677 | 1.09 | 0.489 | inactive | CG12985 (GeneID 32774) | 2 |
| 0.141 | -0.267 | -0.284 | inactive | CG32369 (GeneID 38873) | 1 |
| -0.165 | 0.454 | -0.464 | inactive | CG32369 (GeneID 38873) | 2 |
| -0.277 | 0.429 | 2.43 | inactive | CG32369 (GeneID 38873) | 3 |
| 1.26 | 0.265 | -1.42 | inactive | CG17490 (GeneID 3355125) | 1 |
| -0.28 | -0.148 | 0.643 | inactive | CG17490 (GeneID 3355125) | 2 |
